Data as given in ChEMBL document CHEMBL5370591, “A Potent and Narrow-Spectrum Antibacterial against Clostridioides difficile Infection” (J Med Chem, 2023).

Experiment: Selectivity ratio of IC50 for human THP-1 cells to MIC for Clostridium difficile ATCC 43255

Structure (SMILES): Oc1ccc(-c2nc(-c3ccc(OC4CCCC4)cc3)no2)cc1
- Ratio: 9
